{"source": "PubChem BioAssay AID1259414 – Drosophila RNAi Screening Center – 2018", "screen": "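Genome-wide screen for host control of endosymbiont load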 (primary screen)", "system": "Drosophila JW18 cells infected with Wolbachia", "reagents": "long dsRNA against Drosophila genes, 0.25 µg dsRNA per well of a 384-well plate", "timing": "5 days", "conditions": "cells persistently infected with Wolbachia before knock-down; no added drug", "read-out": "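Automated imaging of bacterial rRNA staining divided by host cell count, reported as plate-normalised robust z-score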", "direction": "Wolbachia per cell robust z: higher = more Wolbachia per host cell than the plate typical", "rule for the call": "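Hit when robust z is 1.5 or more, or -1.5 or less, in at least two of three replicates; excludes dsRNAs with several or no targets, genes not expressed in JW18 and well A1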", "note": "The screen tested about 24,000 reagents; shown is an unselected part of those that have a named target and a result. Of all reagents, about 1,210 (5%) are marked active. 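Inactive calls also include excluded dsRNAs with several or no targets, genes unexpressed in JW18, and well A1, regardless of score.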 A number with no mark means an inactive call."}
{"gene":"CG10747","DRSC id":"DRSC02104","Wolbachia per cell robust z, rep 1":1.06,"Wolbachia per cell robust z, rep 2":0.679,"Wolbachia per cell robust z, rep 3":-3.17}
{"gene":"dila","DRSC id":"DRSC06607","Wolbachia per cell robust z, rep 1":0.546,"Wolbachia per cell robust z, rep 2":-1.98,"Wolbachia per cell robust z, rep 3":0.253}
{"gene":"dila","DRSC id":"DRSC26509","Wolbachia per cell robust z, rep 1":-1.88,"Wolbachia per cell robust z, rep 2":-1.6,"Wolbachia per cell robust z, rep 3":-3.16}
{"gene":"Cpr50Ca","DRSC id":"DRSC05454","Wolbachia per cell robust z, rep 1":1.19,"Wolbachia per cell robust z, rep 2":0.688,"Wolbachia per cell robust z, rep 3":1.53}
{"gene":"Cpr50Ca","DRSC id":"DRSC06372","Wolbachia per cell robust z, rep 1":0.864,"Wolbachia per cell robust z, rep 2":0.317,"Wolbachia per cell robust z, rep 3":-0.554}
{"gene":"Cpr50Ca","DRSC id":"DRSC06375","Wolbachia per cell robust z, rep 1":-2.24,"Wolbachia per cell robust z, rep 2":-0.84,"Wolbachia per cell robust z, rep 3":-0.992}
{"gene":"CG32625","DRSC id":"DRSC18994","Wolbachia per cell robust z, rep 1":1.28,"Wolbachia per cell robust z, rep 2":0.851,"Wolbachia per cell robust z, rep 3":-0.853}
{"gene":"CG32625","DRSC id":"DRSC28080","Wolbachia per cell robust z, rep 1":-0.0535,"Wolbachia per cell robust z, rep 2":-0.699,"Wolbachia per cell robust z, rep 3":1.05}
{"gene":"CG12680","DRSC id":"DRSC17871","Wolbachia per cell robust z, rep 1":-0.348,"Wolbachia per cell robust z, rep 2":-0.103,"Wolbachia per cell robust z, rep 3":-1.96}
{"gene":"CG33777","DRSC id":"DRSC38851","Wolbachia per cell robust z, rep 1":-0.358,"Wolbachia per cell robust z, rep 2":1.24,"Wolbachia per cell robust z, rep 3":-3.74}
{"gene":"CG6023","DRSC id":"DRSC19970","Wolbachia per cell robust z, rep 1":-5.08,"Wolbachia per cell robust z, rep 2":-0.368,"Wolbachia per cell robust z, rep 3":0.37}
{"gene":"crc","DRSC id":"DRSC03513","Wolbachia per cell robust z, rep 1":0.359,"Wolbachia per cell robust z, rep 2":-1.2,"Wolbachia per cell robust z, rep 3":1.02}

Copied from the entries so far for reference:
{"gene":"CG33777","DRSC id":"DRSC38851","Wolbachia per cell robust z, rep 1":-0.358,"Wolbachia per cell robust z, rep 2":1.24,"Wolbachia per cell robust z, rep 3":-3.74}
{"gene":"CG6023","DRSC id":"DRSC19970","Wolbachia per cell robust z, rep 1":-5.08,"Wolbachia per cell robust z, rep 2":-0.368,"Wolbachia per cell robust z, rep 3":0.37}
